Measured values from several laboratories, pooled; numbers as filed in NIAID ChemDB.

ECn is the concentration giving n% inhibition of infection, replication or growth. Inhibition is in % at the dose shown (toxicity tests: loss of growth or viability). Conditions beyond the fields shown may differ between rows. MIC bound comes from a single tested concentration. ICn is the concentration giving n% inhibition. Blank or dashed fields: not listed here.

SMILES	tested at	target	method	read-out	cell line	kind	organism	strain	result
COc1ccc(N2CCN(c3cncc(-c4cccc5ccccc45)n3)CC2)cc1OC	-	UL97 kinase	-	IC50	-	target	Cytomegalovirus	-	<100 µM
Nc1ccc(Cc2ccc(N)cc2N)c(N)c1	-	-	-	MIC	-	culture	Mycobacterium tuberculosis	H37Rv	>100 µg/mL
CO[C@@]12[C@H](COC(N)=O)C3=C(C(=O)C(C)=C(N)C3=O)N1C[C@H]1[C@@H]2N1C(=O)/C=C/c1ccccc1	-	-	-	MIC	-	culture	Mycobacterium tuberculosis	CS-R	<0.1 µg/mL
O=C(O)C#CC(=O)O	-	-	-	MIC	-	culture	Mycobacterium tuberculosis	H37Rv	>100 µg/mL
CCCCCCCC/C=C/CCCCCCCC(=O)Nc1nnc(NCc2ccc3c(c2)OCO3)s1	-	Polymerase	-	IC50	-	target	Human cytomegalovirus	-	<25 µM
NNC(=O)c1ccccc1SSc1ccccc1C(=O)NN	-	-	-	MIC	-	culture	Mycobacterium tuberculosis	CS-R	>12.5 µg/mL
O=S(=O)([O-])c1ccc2ccc3nc(-c4ccccc4O)ccc3c2c1.[Na+]	-	-	-	MIC	-	culture	Mycobacterium tuberculosis	H37Rv	>100 µg/mL
NC(=O)CNC(=O)[C@@H]1C[C@@H](O)CN1C(=O)[C@@H]1CCCN1C(=O)OCc1ccccc1	6.25 µg/mL	-	resazurin	inhibition	-	culture	Mycobacterium tuberculosis	H37Rv	-1%
c1ccc2c(-c3cncc(N4CCN(c5cnccn5)CC4)n3)csc2c1	-	UL97 kinase	-	IC50	-	target	Cytomegalovirus	-	<1 µM
Fc1ccc(N2CCCCC2)c(NC(=S)c2ccncc2)c1	10 µM	Rsk1	kinase activity	inhibition	-	host protein	-	-	12%
O=C(Nc1nnc(NCc2ccc(Cl)c(Cl)c2)s1)c1ccc2c(c1)C(=O)OC2=O	-	Polymerase	-	IC50	-	target	Human cytomegalovirus	-	<25 µM
CC(=O)O[C@H]1CC[C@]2(C)C3=C([C@@H](OO)C[C@H]2C1(C)C)[C@]1(C)CC[C@H](C(C)CCCC(C)C)[C@@]1(C)CC3	-	-	BACTEC	MIC	-	culture	Mycobacterium tuberculosis	H37Rv	128 µg/mL
O=c1cc[nH]c2cc(Cl)ccc12	-	-	-	MIC	-	culture	Mycobacterium tuberculosis	H37Rv	>100 µg/mL
CN(c1ccccc1)c1cc2nc3ccccc3nc2cc1O	-	-	-	MIC	-	culture	Mycobacterium tuberculosis	H37Rv	12.5 µg/mL
OCCOc1ccc(Cl)cc1	-	-	-	MIC	-	culture	Mycobacterium tuberculosis	H37Rv	>100 µg/mL
CC(C)=O.CC(C)C1(NC(=O)C2C=C3c4cccc5[nH]cc(c45)CC3N(C)C2)OC2(O)C3CCCN3C(=O)C(Cc3ccccc3)N2C1=O	-	-	BACTEC	MIC bound	-	culture	Mycobacterium tuberculosis	H37Rv	>12.8 µg/mL
C#CC[C@@H](C(=O)N[C@H](/C=C/C(=O)OCC)C[C@@H]1CCNC1=O)n1cccc(NC(=O)c2cc(C)on2)c1=O	-	-	cytopathic effect / XTT	EC50	H1-HELA	culture	Rhinovirus	Clinical isolate 119 (serotype 39)	0.064 µM
CCSCCNc1nnc(NC(=O)/C=C/c2ccccc2)s1	-	Polymerase	-	IC50	-	target	Human cytomegalovirus	-	>25 µM
O=C(Nc1ccccc1)c1cc2ccccc2oc1=O	-	-	-	MIC	-	culture	Mycobacterium tuberculosis	H37Rv	>100 µg/mL
Cc1ccc(C(=O)Nc2nnc(NCC3CCCCC3)s2)cc1	-	Polymerase	-	IC50	-	target	Human cytomegalovirus	-	>25 µM
Cl.Nc1cc(O)cc(O)c1	-	-	-	MIC	-	culture	Mycobacterium tuberculosis	H37Rv	>100 µg/mL
CCOc1ccc2ccccc2c1C(=O)Nc1nnc(NCCC(c2ccccc2)c2ccccc2)s1	-	Polymerase	-	IC50	-	target	Human cytomegalovirus	-	<25 µM
Cc1cc(C)c(O)c(N=Nc2ccccc2C(=O)O)c1	-	-	-	MIC	-	culture	Mycobacterium tuberculosis	H37Rv	50 µg/mL
Cc1nn(C(=O)c2ccncc2)c(C)c1N=Nc1ccc(S(=O)(=O)N=C(N)N)cc1	12.5 µg/mL	-	BACTEC	inhibition	-	culture	Mycobacterium tuberculosis	H37Rv	1%
COc1c(OC)c(C(C)C)c2c(c1C(=O)O)C(=O)OC2=O	-	-	-	MIC	-	culture	Mycobacterium tuberculosis	H37Rv	>100 µg/mL
CCO/N=C/c1ccc(OCCC2CCN(c3ccc(C)nn3)CC2)cc1	-	-	neutral red	EC50	KB	culture	Rhinovirus	363 (ICAM-1 receptor group 32)	1.359 µM
COc1c(O)cc2oc3cc(O)c(CC=C(C)C)c(O)c3c(=O)c2c1CC=C(C)C	-	-	-	MIC	-	culture	Mycobacterium tuberculosis	INH-r	6.4 µg/mL
C/C=C/C=C/C(=O)O	-	-	-	MIC	-	culture	Mycobacterium tuberculosis	H37Rv	>100 µg/mL
O=C(Nc1nnc(NCc2ccco2)s1)c1ccc(Cl)c(Cl)c1	-	Polymerase	-	IC50	-	target	Human cytomegalovirus	-	>25 µM
O=C1NC(=O)c2cnccc21	-	-	-	MIC	-	culture	Mycobacterium tuberculosis	H37Rv	100 µg/mL
Cc1cc2c(c3c1c(=O)c1ccccc1n3C)C=CC(C)(C)O2	-	-	-	MIC	-	culture	Mycobacterium tuberculosis	ETA-R	12.5 µg/mL
Cc1cc(=O)oc2c(O)c(O)ccc12	-	-	-	MIC	-	culture	Mycobacterium tuberculosis	H37Rv	50 µg/mL
CCOC(=O)c1cc(O)cc(=O)n1C1OC(COC(=O)c2ccccc2)C(OC(=O)c2ccccc2)C1OC(=O)c1ccccc1	12.5 µg/mL	-	BACTEC	inhibition	-	culture	Mycobacterium tuberculosis	H37Rv	-5%
COc1ccccc1N1CCN(c2cncc(-c3ccc(C)cc3)n2)CC1	-	UL97 kinase	-	IC50	-	target	Cytomegalovirus	-	<100 µM
Oc1cccc2cccc(O)c12	-	-	-	MIC	-	culture	Mycobacterium tuberculosis	H37Rv	50 µg/mL
[N-]=[N+]=N[C@H]1C[C@H](n2ccc(N)nc2=O)O[C@@H]1CO	12.5 µg/mL	-	BACTEC	inhibition	-	culture	Mycobacterium tuberculosis	H37Rv	23%
Cc1ccc(N2CCN(c3cncc(-c4cccc5ccccc45)n3)CC2)cc1	10 µM	UL97 kinase	-	inhibition	-	target	Cytomegalovirus	-	>15%
Clc1cc2nc3[nH]c4ccccc4c3nc2cc1Cl	-	-	resazurin	MIC bound	-	culture	Mycobacterium tuberculosis	H37Rv	>6.25 µg/mL
CCOc1ccc(N)c([N+](=O)[O-])c1	-	-	-	MIC	-	culture	Mycobacterium tuberculosis	H37Rv	>100 µg/mL
Cn1c(O)c(/C=C2/C=Nc3ccccc32)n(C)c1=N	12.5 µg/mL	-	BACTEC	inhibition	-	culture	Mycobacterium tuberculosis	H37Rv	36%
N#Cc1ccccc1N1CCN(c2cncc(-c3ccc(F)c(Cl)c3)n2)CC1	1 µM	UL97 kinase	-	inhibition	-	target	Cytomegalovirus	-	<50%
CS(=O)CC1=NC(=N)N=C1CS(C)=O	-	-	BACTEC	MIC bound	-	culture	Mycobacterium tuberculosis	H37Rv	>12.5 µg/mL
O=[N+]([O-])c1ccc2c(c1)Cc1ccccc1-2	-	-	-	MIC	-	culture	Mycobacterium tuberculosis	H37Rv	>100 µg/mL
N#CC1=C(c2ccccc2)C(=C2Nc3ccccc3N2)C2S/C(=C\c3ccccc3)C(=O)N2C1=N	6.25 µg/mL	-	resazurin	inhibition	-	culture	Mycobacterium tuberculosis	H37Rv	13%
COc1ccc(N2CCN(c3cncc(-c4cc5ccccc5s4)n3)CC2)cc1	1 µM	UL97 kinase	-	inhibition	-	target	Cytomegalovirus	-	<50%

4 of the rows above, restated:

SMILES,tested at,target,method,read-out,cell line,kind,organism,strain,result
N#Cc1ccccc1N1CCN(c2cncc(-c3ccc(F)c(Cl)c3)n2)CC1,1 µM,UL97 kinase,-,inhibition,-,target,Cytomegalovirus,-,<50%
c1ccc2c(-c3cncc(N4CCN(c5cnccn5)CC4)n3)csc2c1,-,UL97 kinase,-,IC50,-,target,Cytomegalovirus,-,<1 µM
CCO/N=C/c1ccc(OCCC2CCN(c3ccc(C)nn3)CC2)cc1,-,-,neutral red,EC50,KB,culture,Rhinovirus,363 (ICAM-1 receptor group 32),1.359 µM
COc1c(OC)c(C(C)C)c2c(c1C(=O)O)C(=O)OC2=O,-,-,-,MIC,-,culture,Mycobacterium tuberculosis,H37Rv,>100 µg/mL